Results reported in patent US20190391160A1 (priority 2016, published 2019).

Legend:
[1] = biological target: PLA2 activity of CB/NBD1 complex (Crotalus durissus terrificus, UniProt C0HM14); assay: Spectrofluorimetric PLA2 activity assay, inhibition by PMS 1062, CB/NBD1 complex; assay type: biochemical; conditions: read-out: Inhibition constant (Ki), β-py-C10-PG 5 and 10 μM, Dixon plot
[2] = biological target: PLA2 enzymatic activity of CB (Crotalus durissus, UniProt C0HM14); assay: Spectrofluorimetric PLA2 activity assay, inhibition by PMS 1062; conditions: read-out: Inhibition constant (Ki); CB alone, β-py-C10-PG 5 and 10 μM, Dixon plot, competitive

For `CCCCCCCCCCCCCCOc1ccc(Cc2noc(=O)[nH]2)cc1`, the Ki [1] was 480 nM and the Ki [2] was 25 nM.
